Anti-infective test results gathered from many reports (values: NIAID ChemDB through PubChem).

Shared fields: whole-cell or culture tests; organism: Mycobacterium tuberculosis

MIC50, MIC90 and the like: level of inhibition, or share of isolates inhibited. Inhibition is in % at the dose shown (toxicity tests: loss of growth or viability). ECn: concentration that inhibits the pathogen or its effect by n%. MIC bound: limit read from a one-dose screen. Neighbouring rows are from separate reports. Fold resistance: result on the changed form divided by that on wild type. Blank or dashed fields: not listed here. Two numbers with a dash give a range or band.

smiles	mutations	method	strain or isolate	cells	conditions	read-out	tested at	result
CC1(C)CC(N=c2cc3n(-c4ccccc4Cl)c4ccccc4nc-3cc2Nc2ccccc2Cl)CC(C)(C)N1			H37Rv	Macrophages	inside macrophages	inhibition	0.005 µg/mL	85%
CO[C@H]1/C=C/O[C@@]2(C)Oc3c(C)c(O)c4c(=O)c(c5oc6cc(N7CCN(CC(C)C)CC7)cc(=O)c6nc5c4c3=C2O)NC(=O)/C(C)=C\C=C\[C@H](C)[C@H](O)[C@@H](C)[C@@H](O)[C@@H](C)[C@H](OC(C)=O)[C@@H]1C			H37Rv-pHT (Tyr 526 mutation)			MIC		8 µg/mL
C(=C\c1nc(-c2ccccc2)nc2c1ncn2Cc1ccccc1)/c1ccccc1		BACTEC	H37Rv			EC50		<12.5 µg/mL
O=C(NNCc1cccc(C(F)(F)F)c1)c1ccncc1			H37Rv			MIC		0.2 µg/mL
Cc1nc(N)sc1C(=O)Nc1ncn[nH]1		BACTEC	H37Rv			MIC bound		>12.5 µg/mL
CCCCCS(=O)(=O)Nc1ccc2[nH]c(C(N)=O)c(C)c2c1		resazurin	H37Rv			MIC90		1.6 µM
Cc1onc(-c2ccccc2Cl)c1C(=O)N[C@@H]1C(=O)N2[C@@H]1SC(C)(C)[C@@H]2C(=O)O			H37Rv			Mean MIC		>256 µg/mL
C=Cc1ncc2ncn(Cc3ccccc3)c2n1		BACTEC	H37Rv			EC50		>12.5 µg/mL
CC1(C)CC(N=c2cc3n(-c4cc(Cl)cc(Cl)c4)c4ccccc4nc-3cc2Nc2cc(Cl)cc(Cl)c2)CC(C)(C)N1			TBRP321 (INH RMP-resistant)			MIC		0.03 µg/mL
C=C1C[C@@]23CC[C@@H]4[C@@](C)(CO)CCC[C@@]4(C)[C@@H]2[C@@H](OC(C)=O)C[C@@H]1C3		resazurin / absorbance	H37Rv			MIC		>50 µg/mL
CCn1c(O)c(C=Nc2ccccc2)s/c1=N\Nc1nc(-c2ccc([N+](=O)[O-])cc2)cs1		resazurin	H37Rv			inhibition	6.25 µg/mL	24%
Nc1ncc2ncn(Cc3ccccc3)c2n1		BACTEC	H37Rv			EC50		>12.5 µg/mL
CN(C)c1ccc2[nH]c3c(C(=O)O)cc(=O)c(=O)c=3oc2c1		BACTEC	H37Rv			MIC bound		>12.5 µg/mL
CC1COc2c(N3CCN(C)CC3)c(F)cc3c(=O)c(C(=O)O)cn1c23		broth dilution	DK97A			MIC		0.5 µg/mL
O=C(NNCc1ccccc1F)c1ccncc1			H37Rv			MBC		>6.25 µg/mL
C=C1C(=O)[C@]23C[C@H]1CC[C@H]2[C@]1(C)CCCC(C)(CO)[C@H]1C[C@H]3O		resazurin / absorbance	H37Ra			MIC		1.56–3.125 µg/mL
COc1cnc2ccc(=O)n(CCN3CCC(NCc4cc(Cl)c(Cl)cn4)CC3)c2c1		resazurin	Canettii			MIC		0.04 µg/mL
CC[C@@H](CO)NCCN[C@@H](CC)CO			Isolate 4			MIC		8 µg/mL
C[C@H]1COc2c(N3CCN(C)CC3)c(F)cc3c(=O)c(C(=O)O)cn1c23			CSU12			MIC		0.25 µg/mL
O=C(N/N=C/c1ccncc1)c1ccncc1		BACTEC				inhibition	0.5 µM	99%
Nc1nc(C#Cc2ccccc2)c2ncn(Cc3ccccc3)c2n1		BACTEC	H37Rv			EC50		<12.5 µg/mL
CCCCS(=O)(=O)Nc1ccc2[nH]c(C(=O)NCCCc3ccccc3)c(C)c2c1		resazurin	H37Rv			MIC90		>100 µM
C[C@H]1COc2c(N3CCN(C)CC3)c(F)cc3c(=O)c(C(=O)O)cn1c23			Isolate 14			MIC		0.25 µg/mL
CC1(C)CC[C@]2(C(=O)O)CC[C@]3(C)C(=CCC4[C@@]5(C)CC[C@H](O)C(C)(C)C5CC[C@]43C)C2C1			H37Rv (ethambutol-resistant)			MIC		50 µg/mL
CCCCS(=O)(=O)Nc1ccc2[nH]c(C(=O)NCc3ccc(C)cc3)c(C)c2c1		resazurin	H37Rv			MIC90		3.1–6.2 µM
Fc1ccc(CCNCCNCCCCc2ccccc2)cc1						MIC		25 µM
c1ccc(Cn2cnc3cncnc32)cc1		BACTEC	H37Rv			EC50		>12.5 µg/mL
CC1COc2c(N3CCN(C)CC3)c(F)cc3c(=O)c(C(=O)O)cn1c23		resazurin	ATCC 27294			MIC		0.6 µM
CN[C@@H]1[C@H](O[C@H]2[C@H](O[C@H]3[C@H](O)[C@@H](O)[C@H](N=C(N)N)[C@@H](O)[C@@H]3N=C(N)N)O[C@@H](C)[C@]2(O)C=O)O[C@@H](CO)[C@H](O)[C@H]1O			U113			MIC		≥512 µg/mL
Nc1nc(-c2ccccc2)c(-c2ccccc2)nc1C(=O)NCc1ccccc1		BACTEC	H37Rv			MIC		≥12.5 µg/mL
Clc1nc(/C=C/c2ccccc2)c2ncn(Cc3ccccc3)c2n1		BACTEC	H37Rv			EC50		<12.5 µg/mL
Cc1ccc(S(=O)(=O)NCCNCCO)cc1		resazurin	H37Rv			MIC bound		>6.25 µg/mL
CO[C@H]1/C=C/O[C@@]2(C)Oc3c(C)c(O)c4c(O)c(c(/C=N/N5CCN(C)CC5)c(O)c4c3C2=O)NC(=O)/C(C)=C\C=C\[C@H](C)[C@H](O)[C@@H](C)[C@@H](O)[C@@H](C)[C@H](OC(C)=O)[C@@H]1C			Isolate 7			MIC		2 µg/mL
O=c1c2ccccc2c(=O)c2c1ccc1[nH]c3ccccc3sc12		BACTEC	H37Rv			MIC bound		>12.5 µg/mL
CCN=c1cc2n(-c3ccc(C(F)(F)F)cc3)c3ccccc3nc-2cc1Nc1ccc(C(F)(F)F)cc1			2225		multidrug-resistant	MIC		0.12 µg/mL
C=Cc1nc2c(Cl)ncnc2n1Cc1ccccc1		BACTEC	H37Rv			EC50		>12.5 µg/mL
COc1ccc2c(c1)[n+]([O-])c(C(N)=O)c(N)[n+]2[O-]			H37Rv	VERO		MIC		3.1 µg/mL
CC[C@@H](CO)NCCN[C@@H](CC)CO			Strain 24			MIC		8 µg/mL
FC(F)(F)c1ccc(CNCCNCCC2=CCCCC2)cc1						MIC		50 µM
CC(=O)NC[C@H]1CN(c2ccc(N3CCOCC3)c(F)c2)C(=O)O1	G2270T		AZD5847-resistant 8.10			MIC		8 µg/mL
CNC(=O)OCC1=C(Sc2ccccc2)C(=O)C(OC)=C(OC)C1=O		resazurin	H37Rv			inhibition	6.25 µg/mL	-6%
N#C[B][n+]1ccc(C(=O)NNCC(F)(F)F)cc1		colony count	Erdman	Macrophages	inside macrophages	EC90		1.14 µg/mL
NC[C@H]1O[C@H](O[C@H]2[C@H](O)[C@@H](O[C@H]3O[C@H](CO)[C@@H](O)[C@H](N)[C@H]3O)[C@H](N)C[C@@H]2N)[C@H](O)[C@@H](O)[C@@H]1O			H2			MIC		1 µg/mL
Cc1ccc(S(=O)(=O)NC(=S)S)cc1		BACTEC	H37Rv			MIC		≥128 µg/mL
CC(C)=CCC/C(C)=C/CNCCNC[C@]1(C)CCC[C@]2(C)c3ccc(C(C)C)cc3CC[C@@H]12						MIC		12.5 µM
O=C(Nc1ccccc1)c1cnccn1		BACTEC	H37Rv			inhibition	12.5 µg/mL	19%
NNC(=O)c1ccncc1			H37Rv			Median MIC		0.05 µg/mL
C=C1C(=O)[C@@]23[C@H](O)C[C@@H]4C(C)(C)CC[C@@H](OC(C)=O)[C@@]4(C)[C@@H]2CC[C@@H]1[C@H]3O		resazurin / absorbance	H37Ra			MIC		3.125–6.25 µg/mL
C/C(=N\NC(=O)c1ccncc1)c1ccccc1			H37Rv (ethambutol-resistant)			MIC		2 µg/mL
NC(=O)c1cnccn1			H6927			MIC		30 µg/mL
CO[C@H]1/C=C/O[C@@]2(C)Oc3c(C)c(O)c4c(O)c(c5c(c4c3C2=O)NC2(CCN(CC(C)C)CC2)N=5)=NC(=O)/C(C)=C\C=C\[C@H](C)[C@H](O)[C@@H](C)[C@@H](O)[C@@H](C)[C@H](OC(C)=O)[C@@H]1C			Strain 24			MIC		≤0.125 µg/mL
CCCCC(CC)CN1CN(CC(CC)CCCC)CC(C)(NCCNC[C@@H]2CC[C@H]3C[C@@H]2C3(C)C)C1						MIC		25 µM
CO[C@H]1/C=C/O[C@@]2(C)Oc3c(C)c(O)c4c(O)c(c(/C=N/N5CCN(C)CC5)c(O)c4c3C2=O)NC(=O)/C(C)=C\C=C\[C@H](C)[C@H](O)[C@@H](C)[C@@H](O)[C@@H](C)[C@H](OC(C)=O)[C@@H]1C		resazurin / absorbance	H37Ra			MIC		0.05–0.1 µg/mL
CC(C)=CCC/C(C)=C/CNCCN1CC2(C)CC1CC(C)(C)C2						MIC		12.5 µM
CCC[C@@H]1C[C@@H](C(=O)N[C@@H]([C@H]2O[C@H](SC)[C@H](O)[C@@H](O)[C@H]2O)[C@@H](C)O)N(C)C1			H37Rv			Median MIC		>256 µg/mL
O=C(N/N=C/c1ccccc1F)c1ccncc1			Rifampicin-resistant			MIC		0.05 µg/mL
C[C@]1(COc2ccc(N3CCC(Oc4ccc(OC(F)(F)F)cc4)CC3)cc2)Cn2cc([N+](=O)[O-])nc2O1			Erdman			MIC		0.012 µg/mL
Cn1c(=O)c2[nH]c(=O)c(C(CO)C(=O)c3ccccc3)nc2n(C)c1=O		BACTEC	H37Rv			MIC bound		>12.5 µg/mL
CC(NNC(=O)c1ccncc1)c1ccc(Cl)c(Cl)c1			H37Rv (ethionamide-resistant)			MIC		>31.25 µg/mL
CC1=C(C)C(=O)C(CC2=C(C)C(=O)C(C)=C(C)C2=O)=C(C)C1=O			INH-r			MIC		>8 µg/mL
Cc1cccc(C(N)=Nc2nc(-c3ccccn3)cc3ccccc23)c1			J-3147			MIC		1 µg/mL
CCCCC(CC)CN1CN(CC(CC)CCCC)CC(C)(NCCNCCOC)C1						MIC		6.25 µM
Nc1cccc2ccc(N/N=C/c3ccccc3O)nc12		BACTEC	H37Rv			inhibition	12.5 µg/mL	54%
Fc1ccccc1CCNCCNCCc1ccc(Cl)cc1Cl						MIC		50 µM
NC[C@H]1O[C@H](O[C@H]2[C@H](O)[C@@H](O[C@H]3O[C@H](CO)[C@@H](O)[C@H](N)[C@H]3O)[C@H](N)C[C@@H]2N)[C@H](O)[C@@H](O)[C@@H]1O			H37Rv			Mean MIC		2 µg/mL
CCc1ccc([C@H]2C[C@@H](C(F)(F)F)n3ncc(C(=O)NCc4ccc5c(c4)OCO5)c3N2)cc1	MmpL3: Ala677Val	fluorescence	H37Rv			fold resistance		11.3
CN[C@@H]1[C@H](O[C@H]2[C@H](O[C@H]3[C@H](O)[C@@H](O)[C@H](N=C(N)N)[C@@H](O)[C@@H]3N=C(N)N)O[C@@H](C)[C@]2(O)C=O)O[C@@H](CO)[C@H](O)[C@H]1O			MTB21 (S)			MIC		0.3 µg/mL
O=C1c2ccccc2-n2c1nc1ccc([N+](=O)[O-])cc1c2=O		BACTEC	H37Rv			MIC		12.5 µg/mL
COc1ccc(OC)c(CCNCCNCc2ccc(C(F)(F)F)cc2)c1						MIC		12.5 µM
CC1CN(c2c(F)cc3c(=O)c(C(=O)O)cn(C4CC4)c3c2F)CC(C)N1			Strain 24			MIC		0.25 µg/mL
Cc1c([N+](=O)[O-])cc(NC(=O)/C=C\C(=O)O)cc1[N+](=O)[O-]		BACTEC	H37Rv			inhibition	12.5 µg/mL	0%
CCCCS(=O)(=O)Nc1ccc2[nH]c(C(N)=O)c(C)c2c1	V123A DG167-resistant	resazurin	DRM167 16x3			MIC90		>100 µM
CO[C@@]12[C@H](COC(=O)NCCO)C3=C(C(=O)C(C)=C(N)C3=O)N1C[C@H]1[C@@H]2N1C		BACTEC	H37Rv			MIC		6.25 µg/mL
NC[C@@H]1O[C@H](O[C@H]2[C@@H](O)[C@H](O[C@@H]3[C@@H](O)[C@H](N)C[C@H](N)[C@H]3O[C@H]3O[C@H](CO)[C@@H](O)[C@H](O)[C@H]3N)O[C@@H]2CO)[C@H](N)[C@@H](O)[C@@H]1O			MTB12 (PZA-R)			MIC		0.75 µg/mL
Cc1ccc(N=Nc2c(N)c(C)cc(N=Nc3ccc(Sc4ccc(N=Nc5ccc(O)c(C(=O)[O-])c5)cc4)cc3)c2N)cc1.[Na+]		BACTEC	H37Rv			inhibition	12.5 µg/mL	0%
C=C(OCC)c1nc(Cl)nc2c1ncn2Cc1ccccc1		BACTEC	H37Rv			EC50		<12.5 µg/mL
CC(=O)N1C(=O)C2(NCCCN2)c2ccccc21		BACTEC	H37Rv			MIC bound		>12.8 µg/mL
CCCCS(=O)(=O)Nc1ccc2[nH]c(C(=O)OCC)c(C)c2c1	V123A DG167-resistant	resazurin	DRM167 16x3			MIC90		12.5 µM
CO[C@@]12[C@H](COC(N)=O)C3=C(C(=O)C(C)=C(N)C3=O)N1C[C@H]1[C@@H]2N1C(=O)/C=C/c1ccccc1			TAC-R			MIC		0.2 µg/mL
NNC(=O)c1ccncc1	G2270T		AZD5847-resistant 8.10			MIC		0.06 µg/mL